Results published in article PMC12871957.

Experiments:
[1] = target: HIV-1 capsid (core) with wild type CA (HIV-1); experiment: TIRF microscopy of fluorescent CypA bound to cores in immobilised, permeabilised virions; biotinylated HIV-1 particles immobilized on PLL-PEG-biotin coverslips in microfluidic channels, permeabilized with streptolysin O in 0.1 mM IP6; 2 µM AF647-CypA mixed with unlabelled CypA to 2-150 µM final; median signal at equilibrium fitted with an equilibrium binding model
[2] = target: HIV-1 capsid (core) with wild type CA (HIV-1)

## cyclophilin A (CypA) (from UniProt P62937 1-165) (natural protein)
[1]
  Kd: 25.7 µM
[2]
  AFM: percentage of purified wild type cores that break on strong compression, with recombinant CypA added up to 40 μM (% of cores broken): 30
